Values quoted from earlier work as cited in paper PMC11050952 (Marine Drugs, 2024).

Experiments:
Neuro-2a cells = details: TEFs previously obtained by the CBA, relative to TTX; cited from earlier work
mouse = details: since trials with MBA resulted in very low toxicities; cited from earlier work

For 5,11-dideoxyTTX, the “Toxicity equivalency factor (TEF)” value (Neuro-2a cells) is listed as 0.75.
In the case of 5-deoxyTTX, the “Toxicity equivalency factor (TEF), assumed” value (mouse) is listed as 0.
For 11-deoxyTTX, the “Toxicity equivalency factor (TEF)” value (Neuro-2a cells) is listed as 0.139.
For 11-norTTX-6(S)-ol, the “Toxicity equivalency factor (TEF)” value (Neuro-2a cells) is listed as 0.404.
